Results on one molecule are retold here after patent US20170073375A1 (University of Washington, published 2017).

For assay [1], the target named is Hemagglutinin (HA) of A/turkey/Wisconsin/1/1966 H9N2 (Influenza A virus …, UniProt P03457 19-526).
Assay [2] concerns the target Hemagglutinin (HA) of A/South Carolina/1/1918 (H1N1) (Influenza A virus A/South …, UniProt Q9WFX3 18-520).
The target of assay [3] is Hemagglutinin (HA) of A/duck/Alberta/60/1976 H12N5 (Influenza A virus …, UniProt P03446 17-530).

B1: HB36.5 (designed binder)
chain: MSNAMDGQQLNRLLLEWIGAWDPFGLGKDAYDYEAAEVLKAVYETESAFDLAMRIHWIYNFAFKRQIPFAHAQKLARRLLELKQAASSPLP
In general, Kd refers to a measure of binding affinity in units of concentration. A higher Kd goes with a looser complex. B1: the Kd in assay [1] stood at 82.8 nM; in assay [2] it was 1.5 nM; in assay [3], 634 nM.
